Measured values from several laboratories, pooled; numbers as filed in NIAID ChemDB.

Common to all: growth or infection tests

A number after MIC or MFC names an inhibition level or a share of isolates. Neighbouring rows are from separate reports. Blank or dashed fields: not listed here.

compound | measure | organism | method | strain or isolate | value
CO[C@@]1(NC(=O)Cc2cccs2)C(=O)N2C(C(=O)O)=C(COC(N)=O)CS[C@@H]21 | MIC | Mycobacterium fortuitum | - | 1048 | 12.5 µg/mL
FC(F)(F)Oc1ccc(C2CCN(c3ccc(CNc4ncnc5ccccc45)cc3)CC2)cc1 | MIC50 | Mycobacterium bovis BCG | luminescence | - | >20 µM
CCO/N=C1\[C@H](C)CC(C)(O)[C@H](O[C@@H]2O[C@H](C)C[C@H](N(C)C)[C@H]2O)[C@@H](C)[C@H](O[C@H]2C[C@@](C)(OC)[C@@H](OC(C)=O)[C@H](C)O2)[C@@H](C)C(=O)O[C@H](CC)[C@@](C)(O)[C@H](O)[C@H]1C | MIC | Mycobacterium avium complex | - | 20092 (clarithromycin-resistant) | >50 µg/mL
OB1OC(N2CCN(C3OB(O)c4ccccc43)CC2)c2ccccc21 | MIC | Mycobacterium luteum | turbidity | - | <0.9 µg/mL
FC(F)(F)c1ccc(Oc2ccc(Nc3nc(C4CC4)nc4ccccc34)cc2)cc1 | MIC50 | Mycobacterium bovis BCG | luminescence | - | >20 µM
NCC[C@H](O)C(=O)N[C@@H]1C[C@H](N)[C@@H](O[C@H]2O[C@H](CN)[C@@H](O)[C@H](O)[C@H]2O)[C@H](O)[C@H]1O[C@H]1O[C@H](CO)[C@@H](O)[C@H](N)[C@H]1O | MIC90 | Mycobacterium bolletii | broth dilution | - | 32 µg/mL
Fc1ccc2c(Nc3ccccc3Oc3ccc(C(F)(F)F)cc3)ncnc2c1 | MIC50 | Mycobacterium bovis BCG | luminescence | - | >50 µM
OB1OC(N2CCCCC2)c2ccccc21 | MIC | Mycobacterium luteum | turbidity | - | 1.9 µg/mL
CO[C@@]1(NC(=O)C2SC(=C(C(N)=O)C(=O)[O-])S2)C(=O)N2C(C(=O)[O-])=C(CSc3nnnn3C)CS[C@@H]21 | MIC | Mycobacterium fortuitum | - | 1261 | 25 µg/mL
OB(O)c1ccccc1 | MIC | Mycobacterium luteum | turbidity | - | 250 µg/mL
CC[C@H]1OC(=O)[C@H](C)[C@@H](O[C@H]2C[C@@](C)(OC)[C@@H](OC(C)=O)[C@H](C)O2)[C@H](C)[C@@H](O[C@@H]2O[C@H](C)C[C@H](N(C)C)[C@H]2OC(=O)NNCCCCCc2ccccc2)C(C)(O)C[C@@H](C)/C(=N\OCCCC2CCCCC2)[C@H](C)[C@@H](O)[C@]1(C)O | MIC | Mycobacterium avium complex | - | 20096 (clarithromycin-resistant) | 3.13 µg/mL
CO[C@@]1(NC(=O)CCCC(N)C(=O)O)C(=O)N2C(C(=O)O)=C(COC(C)=O)CSC21 | MIC | Mycobacterium fortuitum | - | 1261 | >100 µg/mL
CO[C@H]1/C=C/O[C@@]2(C)Oc3c(C)c(O)c4c(O)c(c5c(c4c3C2=O)NC2(CCN(CC(C)C)CC2)N=5)=NC(=O)/C(C)=C\C=C\[C@H](C)[C@H](O)[C@@H](C)[C@@H](O)[C@@H](C)[C@H](OC(C)=O)[C@@H]1C | MIC90 | Mycobacterium avium intracellulare | - | 21 strains | 1 µg/mL
CC[C@H]1OC(=O)[C@H](C)[C@@H](OC2C[C@@](C)(OC)[C@@H](O)[C@H](C)O2)[C@H](C)[C@@H](O[C@@H]2O[C@H](C)C[C@H](N(C)C)[C@H]2O)C(C)(O)C[C@@H](C)/C(=N\OCCc2ccccc2)[C@H](C)[C@@H](O)[C@]1(C)O | MIC | Mycobacterium avium complex | - | 20092 (clarithromycin-resistant) | >50 µg/mL
CO[C@@]1(NC(=O)C(C(=O)O)c2ccc(O)cc2)C(=O)N2C(C(=O)O)=C(CSc3nnnn3C)CO[C@@H]21 | MIC | Mycobacterium fortuitum | - | 914-8 | 12.5 µg/mL
CO[C@H]1/C=C/O[C@@]2(C)Oc3c(C)c(O)c4c(=O)c(c5oc6cc(N7CCN(CC(C)C)CC7)cc(=O)c6nc5c4c3=C2O)NC(=O)/C(C)=C\C=C\[C@H](C)[C@H](O)[C@@H](C)[C@@H](O)[C@@H](C)[C@H](OC(C)=O)[C@@H]1C | MBC | Mycobacterium ulcerans | - | Isolate 94-539 | 0.012 µg/mL
CC[C@H]1OC(=O)[C@H](C)[C@@H](O[C@H]2C[C@@](C)(OC)[C@@H](O)[C@H](C)O2)[C@H](C)[C@@H](O[C@@H]2O[C@H](C)C[C@H](N(C)C)[C@H]2O)[C@](C)(OC)C[C@@H](C)C(=O)[C@H](C)[C@@H](O)[C@]1(C)O | MIC | Mycobacterium avium complex | - | 20039 (clarithromycin-susceptible) | 0.78 µg/mL
O=C(O)c1nc(NCCc2ccc(OC(F)(F)F)cc2)c2ccc(F)cc2n1 | MIC50 | Mycobacterium bovis BCG | luminescence | - | >20 µM
CCC(=O)O[C@H]1[C@H](C)OC(O[C@H]2[C@H](C)[C@@H](O[C@@H]3O[C@H](C)C[C@H](N(C)C)[C@H]3O)C(C)(O)C[C@@H](C)/C(=N\OCCCOc3ccccc3)[C@H](C)[C@@H](O)[C@](C)(O)[C@@H](CC)OC(=O)[C@@H]2C)C[C@@]1(C)OC | MIC | Mycobacterium avium complex | - | 20039 (clarithromycin-susceptible) | 1.56 µg/mL
Fc1ccc(C2CCN(c3ccc(Nc4ncnc5cc(F)ccc45)cc3)CC2)cc1 | MIC50 | Mycobacterium bovis BCG | luminescence | - | >20 µM
Fc1cc(F)c(B2Oc3ccccc3O2)c(F)c1 | MBC | Mycobacterium luteum | turbidity | - | 250 µg/mL
CC(C)(C)c1ccc(CCNc2ncnc3ccsc23)cc1 | MIC50 | Mycobacterium bovis BCG | luminescence | - | >20 µM
CCCCCCCCNNC(=O)O[C@H]1[C@H](O[C@@H]2[C@@H](C)[C@H](O[C@H]3C[C@@](C)(OC)[C@@H](OC(C)=O)[C@H](C)O3)[C@@H](C)C(=O)O[C@H](CC)[C@@](C)(O)[C@H](O)[C@@H](C)/C(=N/OCCCC3CCCCC3)[C@H](C)CC2(C)O)O[C@H](C)C[C@@H]1N(C)C | MIC | Mycobacterium avium complex | - | 20096 (clarithromycin-resistant) | 6.25 µg/mL
COc1ccc2c(Nc3ccc(Oc4ccc(C(F)(F)F)cc4)cc3)ncnc2c1 | MIC50 | Mycobacterium bovis BCG | luminescence | - | >20 µM
CO[C@@]1(NC(=O)CCCC(N)C(=O)O)C(=O)N2C(C(=O)O)=C(COC(N)=O)CSC21 | MIC | Mycobacterium fortuitum | - | 1049 | >100 µg/mL
O=S(=O)(c1ccc(OC(F)(F)F)cc1)C1CCN(c2ccc(Nc3ncnc4ccccc34)cc2)CC1 | MIC50 | Mycobacterium bovis BCG | luminescence | - | >50 µM
CC[C@H]1OC(=O)[C@H](C)[C@@H](O[C@H]2C[C@@](C)(OC)[C@@H](O)[C@H](C)O2)[C@H](C)[C@@H](O[C@@H]2O[C@H](C)C[C@H](N(C)C)[C@H]2O)[C@](C)(O)C[C@@H](C)CN(C)[C@H](C)[C@@H](O)[C@]1(C)O | MIC100 | Mycobacterium abscessus | broth dilution / visual reading | Clinical isolate MR27419N | 1 µg/mL
FC(F)(F)c1ccc(Oc2ccc(Nc3ncnc4ccsc34)cc2)cc1 | MIC50 | Mycobacterium bovis BCG | luminescence | - | >50 µM
CCCCCCCCCCO/N=C1\[C@H](C)CC(C)(O)[C@H](O[C@@H]2O[C@H](C)C[C@H](N(C)C)[C@H]2O)[C@@H](C)[C@H](OC2C[C@@](C)(OC)[C@@H](O)[C@H](C)O2)[C@@H](C)C(=O)O[C@H](CC)[C@@](C)(O)[C@H](O)[C@H]1C | MIC | Mycobacterium avium complex | - | 20096 (clarithromycin-resistant) | 6.25 µg/mL
OB1OC(N2CCOCC2)c2ccccc21 | MIC | Mycobacterium luteum | turbidity | - | 15.6 µg/mL
FC(F)(F)c1ccc(-c2ccc(CNc3ncnc4ccccc34)cc2)cc1 | MIC50 | Mycobacterium bovis BCG | luminescence | - | >20 µM

Again, the opening 4 rows:

compound	measure	organism	method	strain or isolate	value
CO[C@@]1(NC(=O)Cc2cccs2)C(=O)N2C(C(=O)O)=C(COC(N)=O)CS[C@@H]21	MIC	Mycobacterium fortuitum	-	1048	12.5 µg/mL
FC(F)(F)Oc1ccc(C2CCN(c3ccc(CNc4ncnc5ccccc45)cc3)CC2)cc1	MIC50	Mycobacterium bovis BCG	luminescence	-	>20 µM
CCO/N=C1\[C@H](C)CC(C)(O)[C@H](O[C@@H]2O[C@H](C)C[C@H](N(C)C)[C@H]2O)[C@@H](C)[C@H](O[C@H]2C[C@@](C)(OC)[C@@H](OC(C)=O)[C@H](C)O2)[C@@H](C)C(=O)O[C@H](CC)[C@@](C)(O)[C@H](O)[C@H]1C	MIC	Mycobacterium avium complex	-	20092 (clarithromycin-resistant)	>50 µg/mL
OB1OC(N2CCN(C3OB(O)c4ccccc43)CC2)c2ccccc21	MIC	Mycobacterium luteum	turbidity	-	<0.9 µg/mL